We go through one substance from article PMC10869273.

This assay deals with SARS-CoV-2 Wuhan-Hu-1 Spike with six stabilizing proline substitutions (S-6P). The assay can be described thus: BLI. As to conditions: apparent Kd of the bivalent IgG.

In the case of C143 IgG (wild-type) VL:T33N; VL:G53V, the Kd came out at 30 nM.
